Measured values from several laboratories, pooled; numbers as filed in NIAID ChemDB.

Shared fields: growth or infection tests; species: Mycobacterium tuberculosis

MIC50, MIC90 and the like: level of inhibition, or share of isolates inhibited. Percent inhibition refers to the dose given; in toxicity tests it is the harm to the cells. ECn is the concentration giving n% inhibition of infection, replication or growth. a–b is a range or a potency band. Blank or dashed fields: not listed here. Conditions beyond the fields shown may differ between rows. MIC bound comes from a single tested concentration.

compound,endpoint,method,cells,strain or isolate,tested at,value
CCCC(C)Sc1ccc(C(N)=S)cc1,MIC,-,-,H37Rv,-,334 µM
O=[N+]([O-])c1cc2c(ccc3cc(Br)ccc32)o1,MIC,BACTEC,-,H37Rv,-,3.13 µg/mL
CC(C)[C@H]1CO[C@]23CC[C@H](N(Cc4ccc(C(F)(F)F)cc4)CC4CCCN4C(=O)OC(C)(C)C)C[C@H]2CCC(=O)N13,MIC,resazurin,-,-,-,<0.5 µM
COc1cc(-c2cn3nc(S(N)(=O)=O)sc3n2)cc(OC)c1OC,inhibition,-,-,H37Rv,6.25 µg/mL,5%
COc1ccc(C(=O)N(O)CC2=C(C(=O)O)N3C(=O)[C@@H](NC(=O)Cc4ccccc4)C3SC2)cc1,MIC,-,-,H37Rv,-,61.6 µM
COc1cc(/C=C2\CC/C(=C\c3ccc(OCCCCN4CCC(C)CC4)c(OC)c3)C2=O)ccc1OCCCCN1CCC(C)CC1,MIC99,visual reading,-,H37Rv,-,12.5 µM
CCN(CC)CCNc1ccc(C)c2sc3cccc(O)c3c(=O)c12,inhibition,BACTEC,-,H37Rv,12.5 µg/mL,100%
Cc1nc(C)c2ccn([C@@H]3O[C@H](CO)C(O)C3O)c2n1,MIC,MTT,-,My 331/88,-,>250 µM
CCOc1cc(/C=C2\CC/C(=C\c3ccc(OCCCN4CCCC(C)C4)c(OCC)c3)C2=O)ccc1OCCCN1CCCC(C)C1,MIC99,visual reading,-,H37Rv,-,3.125–6.25 µM
CNC(=S)c1ccc(SC)cc1,MIC,-,-,H37Rv,-,>405 µM
C=C[C@]1(C)C[C@@H](OC(=O)CSCCN(CC)CC)[C@]2(C)[C@H](C)CC[C@]3(CCC(=O)[C@H]32)[C@@H](C)[C@@H]1O,MIC,resazurin,-,mc(^2)7000,-,12–25 µg/mL
OC(C1CO1)C(O)C1CO1,MIC bound,resazurin,-,H37Rv,-,>6.25 µg/mL
CC(C)Sc1ccc(/C=C/C(N)=S)cc1,MIC,-,-,H37Rv,-,170 µM
C=C[C@](C)(Cl)[C@@H](Br)/C=C/[C@](C)(Cl)CBr,MIC,-,-,ATCC 35837 (ethambutol-resistant),-,3.13 µg/mL
Cc1cc(C)c2cc(C(=O)N[C@H]3CC[Si](C)(C)C3)[nH]c2c1,MIC90,resazurin,-,H37Rv,-,0.052 µg/mL
NNC(=O)c1ccncc1,MIC,-,-,H37Rv,-,0.03 µg/mL
CC(=O)N1CC(N(Cc2ccc(C(F)(F)F)cc2)[C@H]2CC[C@]34OC[C@H](C(C)C)N3C(=O)CC[C@@H]4C2)C1,MIC,resazurin,-,-,-,0.5–5 µM
OC[C@H]1O[C@@H](n2ccc3c(-c4ccoc4)nc(F)nc32)C(O)C1O,MIC,MTT,-,My 331/88,-,>250 µM
C=C1C(=O)O[C@@H]2C[C@@]3(C)C=CC(=O)C(=C)[C@@H]3C[C@H]12,MIC,-,-,CS-R,-,6.3 µg/mL
CC(C)[C@H]1CO[C@]23CC[C@H](N(CCCCF)Cc4ccc(C(F)(F)F)cc4)C[C@H]2CCC(=O)N13,MIC,resazurin,-,-,-,0.5–5 µM
O=C(Cc1ccccc1)N[C@@H]1C(=O)N2C3=C(CSC12)CN(C(=O)c1ccc(F)cc1)OC3=O,MIC,-,-,H37Rv,-,23.4 µM
CC(C)[C@H]1CO[C@]23CC[C@H](N(CCF)Cc4ccc(C(F)(F)F)cc4)C[C@H]2CCC(=O)N13,MIC,resazurin,-,-,-,0.5–5 µM
Nc1nc(-c2cc3ccccc3o2)c2ccn([C@@H]3O[C@H](CO)C(O)C3O)c2n1,MIC,MTT,-,My 331/88,-,>250 µM
Cc1c(C(=O)/C=C/c2ccccc2[N+](=O)[O-])[n+](=O)c2ccccc2n1[O-],MIC,-,-,PAS-R,-,3.1 µg/mL
CCCCCCCCc1ccc(NCc2ccc(O)c(OC)c2)cc1,MIC90,resazurin,-,H37Ra,-,150 µM
CCCCCCCSc1ccc(C(=S)NC)cc1,MIC,-,-,H37Rv,-,>284 µM
Nc1nc(-c2ccccc2)c2ccn([C@@H]3O[C@H](CO)C(O)C3O)c2n1,MIC,MTT,-,My 331/88,-,>250 µM
CCSc1ccc(/C=C/C(N)=S)cc1,MIC,-,-,H37Rv,-,64 µM
C[C@H]1COc2c(N3CCN(C)CC3)c(F)cc3c(=O)c(C(=O)O)cn1c23,MIC50,-,-,25 strains,-,0.39 µg/mL
O=c1oc2ccccc2c(=O)n1-c1cccc(Cl)c1,MIC,-,-,My 331/88,-,31 µM
Cc1nc(-c2cc3ccccc3o2)c2ccn([C@@H]3O[C@H](CO)C(O)C3O)c2n1,MIC,MTT,-,My 331/88,-,>250 µM
COC1OC(COS(=O)(=O)c2ccc(C)cc2)C(N(C)C(C)=O)C1OS(=O)(=O)c1ccc(C)cc1,MIC bound,BACTEC,-,H37Rv,-,>12.5 µg/mL
CCCCc1nc(Cl)c(C2C(C(=O)Nc3ccc([N+](=O)[O-])cc3)=C(C)NC(C)=C2C(=O)Nc2ccc([N+](=O)[O-])cc2)[nH]1,MIC,-,-,H37Rv,-,0.02 µg/mL
CC(=O)c1cc2cc3c4c(c2oc1=O)CCCN4CCC3,inhibition,BACTEC,-,H37Rv,12.5 µg/mL,81%
CN1CCN(CCCN2c3ccccc3Sc3ccc(C(F)(F)F)cc32)CC1,MIC,-,-,H37Rv,-,5 µg/mL
OC[C@H]1O[C@@H](n2ccc3c(-c4cccs4)nc(F)nc32)C(O)C1O,MIC,MTT,-,My 331/88,-,>250 µM
C=C1C[C@@H](OC(=O)CO)C2CCC[C@]3(CCC(=O)C23)C[C@@H]1O,MIC,resazurin,-,mc(^2)7000,-,>200 µg/mL
COc1cc(/C=C2\CC/C(=C\c3ccc(OCCCN4CCC(C)CC4)c(OC)c3)C2=O)ccc1OCCCN1CCC(C)CC1,MIC99,visual reading,-,H37Rv,-,6.25 µM
FC(F)(F)c1nn2cc(-c3ccco3)nc2s1,MIC,-,-,H37Rv,-,20 µg/mL
CC(C)[C@H]1CO[C@]23CC[C@H](NCc4cc(C(F)(F)F)nc5ccccc45)C[C@H]2CCC(=O)N13,MIC,resazurin,-,-,-,<0.5 µM
CC1CCCN(CCCCOc2ccc(/C=C3\CC/C(=C\c4ccc(OCCCCN5CCCC(C)C5)cc4)C3=O)cc2)C1,MIC99,visual reading,-,H37Rv,-,6.25 µM
COc1ccc(Cc2c(-c3ccc(C)cc3)n[nH]c(=O)c2C2C(=O)N(c3ccccc3)N=C2c2ccccc2)cc1,inhibition,resazurin,-,H37Rv,6.25 µg/mL,13%
CCCCc1nc(Cl)c(C2C(C(=O)Nc3cccc(F)c3)=C(C)NC(C)=C2C(=O)Nc2cccc(F)c2)[nH]1,inhibition,resazurin,-,H37Rv,6.25 µg/mL,82%
CCCCCCCCCCCCCCCCCCNCc1ccc(O)c(OC)c1,EC50,resazurin,-,H37Ra,-,45.3 µM
CC(Cl)CC(=O)C(=O)Nc1nnc(-c2cccc([N+](=O)[O-])c2)s1,MIC,visual reading,-,H37Rv,-,>200 µM
CN[C@H]1CC[C@]23C[C@]24CC[C@]2(C)[C@@H]([C@H](C)N(C)C)CC[C@@]2(C)[C@@H]4CC[C@H]3C1(C)C,MIC bound,BACTEC,-,H37Rv,-,>12.5 µg/mL
C=C[C@]1(C)C[C@@H](OC(=O)CO)[C@]2(C)C(C)CC[C@]3(CCC(=O)C32)[C@@H](C)[C@@H]1O,MIC,resazurin,-,mc(^2)7000,-,25–50 µg/mL
Cc1nc(-c2ccco2)c2ccn([C@@H]3O[C@H](CO)C(O)C3O)c2n1,MIC,MTT,-,My 331/88,-,>250 µM
NCc1ccccc1CC(=O)N[C@@H]1C(=O)N2C(C(=O)O)=C(CSc3nnnn3CC(=O)O)CS[C@H]12,inhibition,-,-,-,100 µg/mL,6%
OC[C@H]1O[C@@H](n2ccc3c(-c4ccco4)nc(Cl)nc32)C(O)C1O,MIC,MTT,-,My 331/88,-,>250 µM
NC(=S)N/N=C1\C(=O)N(Cc2ccccc2)C(=O)C1C(=O)NCc1ccccc1,MIC bound,resazurin,-,H37Rv,-,>6.25 µg/mL
CC[C@@H](C)[C@H](O)[C@H](C)[C@@H](C/C=C/C=C/C(N)=O)OC(=O)/C=C/c1ccccc1,MIC,-,-,-,-,50 µg/mL
COC1CC(=O)c2cccc(O)c2C1=O,MIC,-,-,90-221387,-,3.125 µg/mL
CCN(CC)CCCCOc1ccc(/C=C2\CC/C(=C\c3ccc(OCCCCN(CC)CC)c(OC)c3)C2=O)cc1OC,MIC99,visual reading,-,H37Rv,-,25 µM
CC(CC[Si](C)(C)C)NC(=O)c1cc2c(Cl)cc(Cl)cc2[nH]1,MIC87,resazurin,-,H37Rv,-,1 µg/mL
CC(=O)OCC1=C(C(=O)O)N2C(=O)[C@@H](NC(=O)CSc3ccncc3)[C@H]2SC1,inhibition,-,-,-,100 µg/mL,73%
COc1cc(CNc2cccc(B3OC(C)(C)C(C)(C)O3)c2)ccc1O,inhibition,resazurin,-,H37Ra,200 µM,<50%
O=C1OC2C3CC(C(C(=O)O)C13)C2N1C(=O)CCC1=O,inhibition,BACTEC,-,H37Rv,12.5 µg/mL,21%
CCN1CCN(CCCCOc2ccc(/C=C3\CC/C(=C\c4ccc(OCCCCN5CCN(CC)CC5)cc4)C3=O)cc2)CC1,MIC99,visual reading,-,H37Rv,-,12.5 µM
FC(F)(F)c1nn2cc(-c3ccc(Cl)cc3)nc2s1,MIC,-,-,H37Rv,-,40 µg/mL
O=c1oc2ccccc2c(=O)n1-c1ccc(Cl)c(Cl)c1,MIC,-,-,My 331/88,-,8 µM
COc1cc(CNc2ccccc2)ccc1O,inhibition,resazurin,-,H37Ra,200 µM,<50%
CCN(CC)c1cc2oc3cc(N)cc(=N)c-3nc2cc1C,MIC,-,VERO,H37Rv,-,1.6 µg/mL
C#CCn1nc(-c2ccc(Cl)cc2)ccc1=O,EC50,resazurin,-,H37Rv (ATCC 27294),-,24.73 µg/mL
Fc1ccc(OCCC(Cn2ccnc2)c2ccc(Cl)cc2Cl)cc1,MIC bound,resazurin,-,H37Rv,-,<6.25 µg/mL
C=C[C@](C)(O)CC[C@@H]1[C@@]2(C)CCCC(C)(C)[C@@H]2CC[C@@]1(C)O,MIC,-,-,-,-,6 µg/mL
C[C@H]1[C@H](NC(=O)/C(=N\OC(C)(C)C(=O)O)c2csc(N)n2)C(=O)N1S(=O)(=O)O,MIC bound,BACTEC,-,H37Rv,-,>12.5 µg/mL
CCCSc1ccc(C(=S)NC)cc1,MIC,-,-,H37Rv,-,>355 µM
CCCCCc1ccc(Oc2nc(OC)cc(OC)n2)c(O)c1,MIC90,broth dilution / visual reading,-,-,-,100 µg/mL
Cn1nnnc1SCC1=C(C(=O)O)N2C(=O)[C@@H](NC(=O)[C@H](O)c3ccccc3)[C@H]2SC1,inhibition,-,-,-,100 µg/mL,0%
O=C(Cc1ccccc1)N[C@@H]1C(=O)N2C3=C(CSC12)CN(C(=O)c1ccccc1)OC3=O,MIC,-,-,H37Rv,-,126 µM
Cc1c(N)nc(N)nc1C(=O)O,MIC bound,BACTEC,-,H37Rv,-,>12.5 µg/mL
CCCCCCCSc1ccc(C(=S)NCC)cc1,MIC,-,-,H37Rv,-,>274 µM
COc1ccc(-n2c(=O)oc3ccccc3c2=O)cc1,MIC,-,-,My 331/88,-,125 µM
NC(=O)C1CC(I)C2CC1C(=O)O2,inhibition,BACTEC,-,H37Rv,12.5 µg/mL,6%
COc1cc(-c2cn3nc(C(F)(F)F)sc3n2)cc(OC)c1OC,MIC,-,-,H37Rv,-,40 µg/mL
O=C1C=C(Nc2ccccc2C(=O)CC(=O)C(=O)Nc2ccc(Cl)c(Cl)c2)c2ccccc2C1=O,MIC,resazurin,-,H37Rv,-,0.78 µg/mL
Cc1ccc(C(=O)N(O)CC2=C(C(=O)O)N3C(=O)[C@@H](NC(=O)Cc4ccccc4)C3SC2)cc1,MIC,-,-,H37Rv,-,31 µM
CCC1CC2CC3c4c(c5cc(OC)ccc5n4C)CCN(C2)C13,inhibition,BACTEC,-,H37Rv,12.5 µg/mL,8%
CC(C)[C@H]1CO[C@]23CC[C@H](NCc4cc(C(F)(F)F)nc5c(C(F)(F)F)cccc45)C[C@H]2CCC(=O)N13,MIC,resazurin,-,-,-,<0.5 µM
NC(=O)CSSCC(N)=O,inhibition,BACTEC,-,H37Rv,12.5 µg/mL,98%
O=C(Nc1nnc(-c2ccc([N+](=O)[O-])cc2)s1)C(=O)c1cccs1,MIC,visual reading,-,H37Rv,-,>200 µM
Oc1ccc2c(c1O)/C(=C/C=NC[C@@]1(O)OC[C@@H](O)[C@H](O)[C@@H]1O)C=N2,inhibition,resazurin,-,H37Rv,6.25 µg/mL,40%
CC(C)[C@H]1CO[C@]23CC[C@H](N(CCCF)Cc4ccc(C(F)(F)F)cc4)C[C@H]2CCC(=O)N13,MIC,resazurin,-,-,-,<0.5 µM